Laboratory results: PMC7700585, “Mechanistic Insights into the Allosteric Regulation of the Clr4 Protein Lysine Methyltransferase by Autoinhibition and Automethylation” (International Journal of Molecular Sciences, 2020)

Amino acid sequences for entries named in this document (tags omitted).
UniProt O60016, whole entry A454R: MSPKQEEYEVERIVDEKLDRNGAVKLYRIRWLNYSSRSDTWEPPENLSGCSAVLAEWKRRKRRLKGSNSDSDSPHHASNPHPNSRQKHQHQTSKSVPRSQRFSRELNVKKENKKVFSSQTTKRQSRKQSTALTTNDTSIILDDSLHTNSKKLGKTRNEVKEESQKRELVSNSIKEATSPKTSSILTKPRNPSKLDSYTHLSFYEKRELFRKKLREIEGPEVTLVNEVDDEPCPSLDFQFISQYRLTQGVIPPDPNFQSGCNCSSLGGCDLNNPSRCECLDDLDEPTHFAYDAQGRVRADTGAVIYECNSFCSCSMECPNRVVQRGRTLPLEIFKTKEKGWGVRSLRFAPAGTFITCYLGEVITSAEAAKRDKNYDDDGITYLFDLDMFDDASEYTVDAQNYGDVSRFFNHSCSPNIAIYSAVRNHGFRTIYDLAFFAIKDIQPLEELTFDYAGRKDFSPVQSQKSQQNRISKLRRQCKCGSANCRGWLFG

Columns and labels:
[1] = target: T1, Clr4 A454R mutant, SUMO- and His-tagged full-length (S. pombe, UniProt O60016 1-490, A454R); assay: enzyme inhibition kinetics (inhibition of Clr4 automethylation by histone peptide, radioactive methyltransferase assay); 0.3 µM Clr4, 25–400 µM peptide, 0.76 µM radioactively labeled AdoMet, 50 mM Tris pH 8.8, 10 mM MgCl2, 20 mM KCl, 1 mM DTT, 1 h at 30 °C; Tricine-SDS-PAGE and autoradiography; globally fitted to a simple inhibitor binding model; details: both partners purified
T1 construct: Clr4, histone H3 lysine 9 methyltransferase of Schizosaccharomyces pombe, 490 amino acids, full length, with A454R in the autoregulatory loop; source: E. coli BL21-CodonPlus (DE3), purified (Ni-NTA, size exclusion chromatography)

[2] = target: T2, Clr4 wild type, SUMO- and His-tagged full-length (S. pombe, UniProt O60016 1-490); assay: as above; details: both partners purified
T2 construct: Clr4, histone H3 lysine 9 methyltransferase of Schizosaccharomyces pombe, 490 amino acids, full length; also called Clr4 WT; WT Clr4; source: E. coli BL21-CodonPlus (DE3), purified (Ni-NTA, size exclusion chromatography)

B1: H3K9me1-biotin (1–18) peptide (peptide, UniProt P68431 2-19, looked up)
peptide: ARTKQTARKSTGGKAPRK
modifications: monomethyl-lysine at 9; biotin (end not stated)
notes: histone H3, residues 1-18, monomethylated at K9; also called monomethylated H3K9 peptide; source: synthetic peptide, bought: Intavis AG
Ki [1]: 11.5 µM | Ki [2]: 24.6 µM
